Measured values from several laboratories, pooled; numbers as filed in NIAID ChemDB.

Common to all: whole-cell or culture tests

Inhibition is in % at the dose shown (toxicity tests: loss of growth or viability). ECn is the concentration giving n% inhibition of infection, replication or growth. Neighbouring rows are from separate reports. Blank or dashed fields: not listed here.

SMILES | organism | endpoint | dose | cell line | read by | value
CO[C@H]1[C@@H](OC(=O)/C=C/C=C/C=C/C=C/C(=O)O)CC[C@@]2(CO2)[C@@H]1[C@@]1(C)O[C@@H]1CC=C(C)C | Encephalitozoon intestinalis | inhibition | 0.01 µg/mL | RK-13 | - | 85.9%
CCCSc1ccc2nc(NC(=O)OC)[nH]c2c1 | Encephalitozoon cuniculi | EC50 | - | MRC-5 fibroblasts | cytopathic effect | <0.01 µg/mL
COC(=O)Nc1nc2ccc(S(=O)c3ccccc3)cc2[nH]1 | Encephalitozoon intestinalis | EC50 | - | E6 HOST CELLS | - | >3 µg/mL
NC(N)=NS(=O)(=O)c1ccc(N)cc1 | Encephalitozoon cuniculi | inhibition | 25 µg/mL | MRC-5 fibroblasts | cytopathic effect | 0%
N=C(N)c1ccc(OCCCOc2ccc(C(=N)N)cc2)cc1 | Encephalitozoon cuniculi | EC50 | - | - | - | 5 µg/mL
CO[C@@H]1[C@H](OC(=O)NC(=O)CCl)CC[C@]2(CO2)[C@H]1[C@@]1(C)O[C@@H]1CC=C(C)C | Encephalitozoon cuniculi | EC50 | - | RK-13 | - | 0.001 µg/mL
CC(C)C[C@H](NC(=O)[C@@H](O)[C@H](N)Cc1ccc([N+](=O)[O-])cc1)C(=O)O | Encephalitozoon cuniculi | EC50 | - | - | - | >20 µg/mL
COc1ccc(OC)c(NCc2cnc3nc(N)nc(N)c3c2C)c1 | Encephalitozoon intestinalis | inhibition | 1 µg/mL | RK-13 | - | 65.8%
O=C(Nc1ccccc1[Se][Se]c1ccccc1NC(=O)c1ccccc1)c1ccccc1 | Encephalomyocarditis virus | MIC | - | - | - | >1000 µg/mL
Nc1[nH]c(=O)ncc1F | Encephalitozoon cuniculi | inhibition | 10 µg/mL | MRC-5 fibroblasts | cytopathic effect | 0%
CCOC(=O)Nc1cc(NC(C)/C(=N/O)c2ccccc2)c([N+](=O)[O-])c(N)n1 | Encephalitozoon intestinalis | inhibition | 0.1 µg/mL | RK-13 | - | 0%
COC(=O)Nc1nc2ccccc2[nH]1 | Encephalitozoon intestinalis | EC50 | - | E6 | - | 0.007 µg/mL
CCCSc1nsc(-c2ccccc2)c1C(=O)O | Encephalomyocarditis virus | EC50 | - | L929 | plaque count | >500 µg/mL
CCCS(=O)c1ccc2nc(NC(=O)OC)[nH]c2c1 | Encephalitozoon intestinalis | EC50 | - | E6 HOST CELLS | - | >3 µg/mL
CO[C@H]1[C@@H](OC(=O)/C=C/C=C/C=C/C=C/C(=O)O)CC[C@@]2(CO2)[C@@H]1[C@@]1(C)O[C@@H]1CC=C(C)C | Encephalitozoon cuniculi | EC50 | - | - | - | 0.01 µg/mL
COc1ccc(OC)c(Cc2cnc3nc(N)nc(N)c3c2C)c1 | Encephalitozoon cuniculi | inhibition | 5 µg/mL | MRC-5 fibroblasts | cytopathic effect | 0%
CCCCc1ccc2nc(NC(=O)OC)[nH]c2c1 | Encephalitozoon intestinalis | EC50 | - | E6 HOST CELLS | - | 0.03 µg/mL
Cn1c([N+](=O)[O-])cnc1COC(N)=O | Encephalitozoon cuniculi | EC50 | - | - | - | >5 µg/mL
Oc1ccccc1[Se][Se]c1ccccc1O | Encephalomyocarditis virus | MIC | - | - | - | 4 µg/mL
C[C@H]1c2cccc(O)c2C(O)=C2C(=O)[C@]3(O)C(O)=C(C(N)=O)C(=O)[C@@H](N(C)C)[C@@H]3[C@@H](O)[C@@H]21 | Encephalitozoon cuniculi | inhibition | 20 µg/mL | MRC-5 fibroblasts | cytopathic effect | 96%
COc1ccc(C(F)(F)F)cc1NCc1cnc2nc(N)nc(N)c2c1C | Encephalitozoon intestinalis | inhibition | 0.01 µg/mL | RK-13 | - | 5.3%
O=C1C(=O)c2ccccc2C(O)=C1C1CCC(c2ccc(Cl)cc2)CC1 | Encephalitozoon cuniculi | EC50 | - | MRC-5 fibroblasts | cytopathic effect | >5 µg/mL
CCOC(=O)Nc1cc(NC/C(=N/O)c2ccc(Cl)cc2Cl)c([N+](=O)[O-])c(N)n1 | Encephalitozoon intestinalis | inhibition | 0.1 µg/mL | RK-13 | - | 7.1%
CSc1nsc(-c2ccccc2)c1C(N)=O | Encephalomyocarditis virus | EC50 | - | L929 | plaque count | >250 µg/mL
CCC(C)n1ncn(-c2ccc(N3CCN(c4ccc(OC[C@H]5CO[C@](Cn6cncn6)(c6ccc(Cl)cc6Cl)O5)cc4)CC3)cc2)c1=O | Encephalitozoon cuniculi | inhibition | 1 µg/mL | MRC-5 fibroblasts | cytopathic effect | 31%
Cc1c(CNc2cccc3c2CCCC3)cnc2nc(N)nc(N)c12 | Encephalitozoon intestinalis | inhibition | 1 µg/mL | RK-13 | - | 74.6%
CO[C@H]1/C=C/O[C@@]2(C)Oc3c(C)c(O)c4c(O)c(c5c(c4c3C2=O)NC2(CCN(CC(C)C)CC2)N=5)=NC(=O)/C(C)=C\C=C\[C@H](C)[C@H](O)[C@@H](C)[C@@H](O)[C@@H](C)[C@H](OC(C)=O)[C@@H]1C | Encephalitozoon cuniculi | inhibition | 10 µg/mL | MRC-5 fibroblasts | cytopathic effect | 12%
COc1cc(NCc2cnc3nc(N)nc(N)c3c2C)cc(OC)c1OC | Encephalitozoon intestinalis | inhibition | 0.1 µg/mL | RK-13 | - | 38.2%
COC(=O)c1c(SC)nsc1-c1ccccc1 | Encephalomyocarditis virus | EC50 | - | L929 | plaque count | 15 µg/mL
CCCNC(=O)Nc1ccccc1[Se][Se]c1ccccc1NC(=O)NCCC | Encephalomyocarditis virus | MIC | - | - | - | 10 µg/mL
NC[C@@H]1O[C@H](O[C@H]2[C@@H](O)[C@H](O[C@@H]3[C@@H](O)[C@H](N)C[C@H](N)[C@H]3O[C@H]3O[C@H](CO)[C@@H](O)[C@H](O)[C@H]3N)O[C@@H]2CO)[C@H](N)[C@@H](O)[C@@H]1O | Encephalitozoon cuniculi | inhibition | 100 µg/mL | MRC-5 fibroblasts | cytopathic effect | 0%
Nc1nc2c(ncn2COC(CO)CO)c(=O)[nH]1 | Encephalitozoon cuniculi | EC50 | - | - | - | >5 µg/mL
CSc1nsc(-c2ccccc2)c1C#N | Encephalomyocarditis virus | EC50 | - | L929 | plaque count | 10 µg/mL

3 of the rows above, restated:

SMILES	organism	endpoint	dose	cell line	read by	value
CSc1nsc(-c2ccccc2)c1C#N	Encephalomyocarditis virus	EC50	-	L929	plaque count	10 µg/mL
CCC(C)n1ncn(-c2ccc(N3CCN(c4ccc(OC[C@H]5CO[C@](Cn6cncn6)(c6ccc(Cl)cc6Cl)O5)cc4)CC3)cc2)c1=O	Encephalitozoon cuniculi	inhibition	1 µg/mL	MRC-5 fibroblasts	cytopathic effect	31%
CSc1nsc(-c2ccccc2)c1C(N)=O	Encephalomyocarditis virus	EC50	-	L929	plaque count	>250 µg/mL